Results of unrelated studies side by side (data: NIAID ChemDB).

All rows: whole-cell or culture tests; agent: Candida albicans; endpoint: MIC

Blank or dashed fields: not listed here. Rows are shuffled and stem from different studies.

compound | strain | value
C=C1C(=O)OCC1COC(=O)CCCC(C)C | A9540 | 50 µg/mL
CCCCCOc1ccc(-c2ccc(-c3ccc(C(=O)N[C@H]4CCCNC(=O)[C@@H]5C[C@H](N)CN5C(=O)[C@H]([C@@H](C)O)NC(=O)[C@H](Cc5ccc(O)cc5)NC(=O)[C@@H]5C[C@@H](O)CN5C(=O)[C@H]([C@@H](C)O)NC4=O)cc3)cc2)cc1 | ATCC 62376 | 50 µg/mL
CO[C@@H](n1cncn1)[C@](O)(Cn1cccn1)c1ccc(F)cc1F | - | >100 µg/mL
COC(=O)/C=C/n1cc(-c2ccc(Cl)cc2)c(C(c2ccccc2)n2ccnc2)c1 | - | 0.34 µg/mL
CO[C@@H](n1cccn1)[C@@](O)(Cn1cncn1)c1ccc(Cl)cc1 | - | >100 µg/mL
CCCCCCCCCCCCCC[C@H](N)C(=O)N[C@H](C(=O)O)C1O[C@@H](n2ccc(=O)[nH]c2=O)[C@H](O)[C@@H]1O | 124 NIK (nikkomycin-R) | >320 µg/mL
[2H]c1ccc(COC[C@@H]2NC(=O)[C@@H]3C[C@@H](O)CN3C(=O)[C@H]([C@@H](C)O)NC(=O)[C@@H](NC(=O)c3ccc(-c4ccc(-c5ccc(OCCCCC)cc5)cc4)cc3)CCCNC(=O)[C@@H]3C[C@H](N)CN3C(=O)[C@H]([C@@H](C)O)NC2=O)cc1 | ATCC 38247 | 25 µg/mL
O=C(c1ccccc1)c1ccc2c(c1)oc(=O)n2CC1=NCCS1 | - | 50 µg/mL
CCCCCCCCCCCCN[C@H]1CCCNC(=O)[C@@H]2C[C@H](N)CN2C(=O)[C@H]([C@@H](C)O)NC(=O)[C@H](CCc2ccc(O)cc2)NC(=O)[C@@H]2C[C@@H](O)CN2C(=O)[C@H]([C@@H](C)O)NC1=O | ATCC 62376 | 0.78 µg/mL
Clc1ccc(CN(Cc2ccc(-c3ccccc3)cc2)n2ccnc2)c(Cl)c1 | - | 6.2 µM
CCn1cc(-c2ccc(Cl)cc2)c(C(c2ccc(Cl)cc2Cl)n2ccnc2)c1 | - | 0.31 µg/mL
CCO[C@@H](n1cncn1)[C@](O)(Cn1cncn1)c1ccc(F)cc1 | - | >100 µg/mL
Clc1ccc(CC(Cc2ccc(-c3ccccc3)cc2)n2ccnc2)cc1 | - | 19.2 µM
CCCCCOc1ccc(-c2cc(-c3ccc(C(=O)N[C@H]4C[C@@H](O)[C@@H](O)NC(=O)[C@@H]5[C@@H](O)[C@@H](C)CN5C(=O)[C@H]([C@H](O)CC(N)=O)NC(=O)[C@H]([C@H](O)[C@@H](O)c5ccc(O)c(OS(=O)(=O)O)c5)NC(=O)[C@@H]5C[C@@H](O)CN5C(=O)[C@H]([C@@H](C)O)NC4=O)cc3)no2)cc1 | OY-31.5 | 0.0312 µg/mL
Clc1ccccc1C=Nc1ccc(N2CCOCC2)cc1 | ATCC 2091 | 23 µg/mL
Cc1c(O)cccc1C(=O)N[C@@H](CSc1ccccc1)[C@H](O)CN1C[C@H]2CCCC[C@H]2C[C@H]1C(=O)NC(C)(C)C | I168B | >64 µg/mL
Fc1ccc(CC(Cc2ccc(-c3ccccc3)cc2)n2ccnc2)c(F)c1 | - | ≥5.5 µM
C=CCn1cc(-c2ccc(Cl)cc2Cl)c(C(c2ccc(Cl)cc2Cl)n2ccnc2)c1 | - | 0.12 µg/mL
CN[C@@H]1[C@H](O[C@@H]2OC[C@@H](O)[C@H](O)[C@H]2O)[C@@H](O)[C@H](O[C@H]2c3cc(C)c(C(=O)N[C@H](C)C(=O)O)c(O)c3-c3c(cc4c(c3O)C(=O)c3cc(OC)cc(O)c3C4=O)[C@@H]2O)O[C@@H]1C | IAM4888 | 6.3 µg/mL
Cc1ccccc1CC(Cc1ccc(-c2ccccc2)cc1)n1ccnc1 | - | 33 µM
CCCCCOc1ccc(-c2ccc(-c3ccc(C(=O)N[C@H]4CCCNC(=O)[C@@H]5C[C@H](N)CN5C(=O)CNC(=O)C(CCc5ccc(O)cc5)NC(=O)[C@@H]5C[C@@H](O)CN5C(=O)[C@H]([C@@H](C)O)NC4=O)cc3)cc2)cc1 | ATCC 38247 | 1.56 µg/mL
COc1ccc(C(=O)c2ccc3c(c2)oc(=O)n3CC2=NCCS2)cc1 | - | 100 µg/mL
O[C@@](Cn1cncn1)(c1ccc(F)cc1)[C@@H](OCC(F)(F)F)n1cncn1 | - | >100 µg/mL
CC1CCC(C(C)C)C(OC(=O)c2ccccc2)C1 | - | 12.02 µM
Clc1ccc(C(c2c[nH]cc2-c2ccc(-n3cccc3)cc2)n2ccnc2)c(Cl)c1 | - | 1.3 µg/mL
COC(=O)C1=C(C)NC(C)=C(C(=O)OC)C1c1ccccc1[N+](=O)[O-] | 66 strains | 374 µg/mL
CC(=O)N1CCN(c2ccc(OC[C@H]3CO[C@](Cn4ccnc4)(c4ccc(Cl)cc4Cl)O3)cc2)CC1 | KB | >4 µg/mL
C(=Nc1ccc(N2CCOCC2)cc1)c1ccccc1 | ATCC 2091 | 31 µg/mL
Cc1ccc(C(c2cn(C)cc2-c2ccc(Cl)c(Cl)c2)n2ccnc2)cc1 | - | 0.19 µg/mL
CCCCCCCOc1ccc(N2CCN(c3ccc(C(=O)N[C@H]4CCCNC(=O)[C@@H]5C[C@H](N)CN5C(=O)[C@H]([C@@H](C)O)NC(=O)[C@H](CCc5ccc(CO)cc5)NC(=O)[C@@H]5CCCN5C(=O)[C@H]([C@@H](C)O)NC4=O)cc3)CC2)cc1 | ATCC 62376 | 1.56 µg/mL
OC(Cn1cncn1)(Cn1cncn1)c1ccc(F)cc1F | 1866 | 0.19 µg/mL
CCCCCOc1ccc(-c2ccc(-c3ccc(C(=O)N[C@H]4C[C@@H](O)[C@@H](O)NC(=O)[C@@H]5[C@@H](O)[C@@H](C)CN5C(=O)[C@H]([C@H](C)O)NC(=O)[C@H]([C@H](O)[C@@H](O)c5ccc(O)cc5)NC(=O)[C@@H]5C[C@@H](O)CN5C(=O)[C@H]([C@H](C)O)NC4=O)cc3)cc2)cc1 | Y171 | 0.16 µg/mL
FC(F)(F)c1ccc(-c2c[nH]cc2C(c2ccc(Cl)cc2Cl)n2ccnc2)cc1 | - | 2.2 µg/mL
CO[C@@H](n1cncn1)[C@](O)(Cn1ccnc1)c1ccc(F)cc1 | - | >100 µg/mL
CC1CCC(C(C)C)C(OC(=O)C(C)Cl)C1 | - | 12.59 µM
c1ccc(-c2c[nH]cc2C(c2cccc3ccccc23)n2ccnc2)cc1 | - | 1.7 µg/mL
O=C(c1ccc2c(c1)oc(=O)n2CC1=NCCS1)c1ccccc1Cl | - | 25 µg/mL
CC(=O)N1CCN(c2ccc(OC[C@H]3CO[C@](Cn4ccnc4)(c4ccc(Cl)cc4Cl)O3)cc2)CC1 | 66 strains | 34.5 µg/mL
COc1cccc(C(=O)OC2CC(C)CCC2C(C)C)c1 | - | 10.72 µM
COc1cc(C=Nc2ccc(N3CCOCC3)cc2)cc(OC)c1OC | ATCC 2091 | 23 µg/mL
CC1CCC(C(C)C)C(OC(=O)c2ccc(Cl)cc2)C1 | - | 21.38 µM
COc1ccc(C=Nc2ccc(N3CCOCC3)cc2)cc1OC | ATCC 2091 | 31 µg/mL
CC1CCC(C(C)C)C(OC(=O)c2cccc(Br)c2)C1 | - | 9.12 µM
CCCCCOc1ccc(-c2ccc(-c3ccc(C(=O)N[C@H]4CCCNC(=O)[C@@H]5[C@@H](O)CCN5C(=O)[C@H]([C@@H](C)O)NC(=O)[C@H](CCc5ccc(O)cc5)NC(=O)[C@@H]5C[C@@H](O)CN5C(=O)[C@H]([C@@H](C)O)NC4=O)cc3)cc2)cc1 | ATCC 62376 | 0.2 µg/mL
C=CCn1cc(-c2ccc(Cl)cc2)c(C(c2ccc(Cl)cc2Cl)n2ccnc2)c1 | - | 0.15 µg/mL
CC1CCC(C(C)C)C(OC(=O)c2ccccc2[N+](=O)[O-])C1 | - | 5.13 µM

The last 6 rows once more:

CC1CCC(C(C)C)C(OC(=O)c2ccc(Cl)cc2)C1 ; value: 21.38 µM
COc1ccc(C=Nc2ccc(N3CCOCC3)cc2)cc1OC ; strain: ATCC 2091 ; value: 31 µg/mL
CC1CCC(C(C)C)C(OC(=O)c2cccc(Br)c2)C1 ; value: 9.12 µM
CCCCCOc1ccc(-c2ccc(-c3ccc(C(=O)N[C@H]4CCCNC(=O)[C@@H]5[C@@H](O)CCN5C(=O)[C@H]([C@@H](C)O)NC(=O)[C@H](CCc5ccc(O)cc5)NC(=O)[C@@H]5C[C@@H](O)CN5C(=O)[C@H]([C@@H](C)O)NC4=O)cc3)cc2)cc1 ; strain: ATCC 62376 ; value: 0.2 µg/mL
C=CCn1cc(-c2ccc(Cl)cc2)c(C(c2ccc(Cl)cc2Cl)n2ccnc2)c1 ; value: 0.15 µg/mL
CC1CCC(C(C)C)C(OC(=O)c2ccccc2[N+](=O)[O-])C1 ; value: 5.13 µM